Assay results: publication PMC4448943 (Neurotoxicology, 2014)

The chains behind the UniProt entries cited, without tags or fusion partners.
UniProt Q8R431, whole entry: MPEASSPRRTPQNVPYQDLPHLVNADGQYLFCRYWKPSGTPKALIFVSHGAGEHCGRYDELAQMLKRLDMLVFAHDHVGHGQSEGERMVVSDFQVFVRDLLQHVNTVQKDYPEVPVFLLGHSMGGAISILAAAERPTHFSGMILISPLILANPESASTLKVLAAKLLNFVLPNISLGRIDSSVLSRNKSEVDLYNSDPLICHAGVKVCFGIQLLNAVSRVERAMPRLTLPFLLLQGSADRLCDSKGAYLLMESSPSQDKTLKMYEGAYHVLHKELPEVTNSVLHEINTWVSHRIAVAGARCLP

Assays:
[1] = target: rat hippocampal MAGL (Rattus norvegicus, UniProt Q8R431); assay: In vitro inhibition of hippocampal MAGL activity; type: biochemical
[2] = target: T1, rat hippocampal AChE (Rattus norvegicus, UniProt P37136); assay: biochemical
T1 sequence (P37136 32-614): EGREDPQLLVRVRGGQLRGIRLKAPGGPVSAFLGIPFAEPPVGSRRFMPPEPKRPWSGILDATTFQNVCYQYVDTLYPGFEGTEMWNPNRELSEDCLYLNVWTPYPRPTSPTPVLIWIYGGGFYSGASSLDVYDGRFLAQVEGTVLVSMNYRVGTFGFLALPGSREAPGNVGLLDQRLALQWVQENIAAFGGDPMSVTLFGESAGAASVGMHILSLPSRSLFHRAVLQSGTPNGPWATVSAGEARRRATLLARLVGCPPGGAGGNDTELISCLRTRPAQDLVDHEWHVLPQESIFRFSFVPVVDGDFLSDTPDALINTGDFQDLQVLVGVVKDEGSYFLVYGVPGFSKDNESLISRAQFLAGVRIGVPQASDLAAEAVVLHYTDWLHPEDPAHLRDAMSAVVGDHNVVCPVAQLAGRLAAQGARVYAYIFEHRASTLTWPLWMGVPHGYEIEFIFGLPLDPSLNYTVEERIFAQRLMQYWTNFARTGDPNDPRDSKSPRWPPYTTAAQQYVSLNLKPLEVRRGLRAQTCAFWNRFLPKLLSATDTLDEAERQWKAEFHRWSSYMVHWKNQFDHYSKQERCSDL

SMILES | IC50 [1] [µM] | IC50 [2] [µM]
CCOP(=O)(OCC)Oc1nc(Cl)c(Cl)cc1Cl [chlorpyrifos oxon] | 0.17 | 
CCOP(=O)(OCC)Oc1ccc([N+](=O)[O-])cc1 [paraoxon, Paraoxon] | 3.17 | 0.064
